These results are taken from publication PMC5342242, “Altering the N-terminal arms of the polymerase manager protein UmuD modulates protein interactions” (PLoS ONE, 2017).

The assay addresses T1, DNA polymerase III α subunit, full-length (E. coli, UniProt P10443 1-1160, in the FRET assay only: labeled with Alexa Fluor 647 C2-maleimide).
T1 construct: α polymerase subunit of DNA polymerase III, E. coli, full-length; Unlabelled in the tryptophan fluorescence titration; also called pol III α; full-length α; source: purified; as previously described [21]
T1 sequence (looked up): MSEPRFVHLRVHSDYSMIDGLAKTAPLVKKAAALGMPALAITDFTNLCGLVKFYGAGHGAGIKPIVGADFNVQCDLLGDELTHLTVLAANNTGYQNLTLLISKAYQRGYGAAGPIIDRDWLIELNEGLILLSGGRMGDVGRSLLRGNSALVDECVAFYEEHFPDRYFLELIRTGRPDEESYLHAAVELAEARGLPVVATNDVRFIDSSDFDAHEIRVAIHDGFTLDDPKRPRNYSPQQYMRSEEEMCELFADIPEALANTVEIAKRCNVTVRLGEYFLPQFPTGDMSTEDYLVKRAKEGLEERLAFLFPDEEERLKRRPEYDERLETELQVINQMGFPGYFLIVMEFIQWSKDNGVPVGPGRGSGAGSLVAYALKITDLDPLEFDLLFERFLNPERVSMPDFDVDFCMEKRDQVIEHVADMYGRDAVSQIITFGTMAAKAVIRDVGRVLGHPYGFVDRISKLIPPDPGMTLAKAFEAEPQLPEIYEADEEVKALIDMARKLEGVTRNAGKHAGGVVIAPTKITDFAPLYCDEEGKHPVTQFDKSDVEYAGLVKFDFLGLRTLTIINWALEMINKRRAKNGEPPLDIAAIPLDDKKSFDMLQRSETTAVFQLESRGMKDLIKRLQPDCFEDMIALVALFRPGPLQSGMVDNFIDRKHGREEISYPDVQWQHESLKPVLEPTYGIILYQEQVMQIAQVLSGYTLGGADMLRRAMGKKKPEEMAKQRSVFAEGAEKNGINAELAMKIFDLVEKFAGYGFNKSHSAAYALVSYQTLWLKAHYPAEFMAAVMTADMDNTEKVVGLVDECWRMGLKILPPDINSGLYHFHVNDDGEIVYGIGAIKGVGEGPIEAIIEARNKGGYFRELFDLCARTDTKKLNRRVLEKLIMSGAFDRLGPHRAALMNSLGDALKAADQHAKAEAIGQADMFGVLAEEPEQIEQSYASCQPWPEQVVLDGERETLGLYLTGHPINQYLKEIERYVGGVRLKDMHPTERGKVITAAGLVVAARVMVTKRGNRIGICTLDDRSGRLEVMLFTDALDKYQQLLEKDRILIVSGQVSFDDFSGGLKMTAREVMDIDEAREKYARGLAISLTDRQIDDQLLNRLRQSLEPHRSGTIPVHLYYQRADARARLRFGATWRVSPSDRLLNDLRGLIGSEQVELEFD
Nature of the assay: FRET or BRET; α labeled with Alexa Fluor 647 C2-maleimide (acceptor) and β labeled with Alexa Fluor 488 C5-maleimide (donor); purified UmuD variants added to 40 μM. As to conditions: both partners purified. Background: Bioluminescence resonance energy transfer reports proximity on the nanometre scale.

B1: β processivity clamp of DNA polymerase III (natural protein, E. coli, UniProt P0A988 1-366, looked up)
chain: MKFTVEREHLLKPLQQVSGPLGGRPTLPILGNLLLQVADGTLSLTGTDLEMEMVARVALVQPHEPGATTVPARKFFDICRGLPEGAEIAVQLEGERMLVRSGRSRFSLSTLPAADFPNLDDWQSEVEFTLPQATMKRLIEATQFSMAHQDVRYYLNGMLFETEGEELRTVATDGHRLAVCSMPIGQSLPSHSVIVPRKGVIELMRMLDGGDNPLRVQIGSNNIRAHVGDFIFTSKLVDGRFPDYRRVLPKNPDKHLEAGCDLLKQAFARAAILSNEKFRGVRLYVSENQLKITANNPEQEEAEEILDVTYSGAEMEIGFNVSYVLDVLNALKCENVRMMLTDSVSSVQIEDAASQSAAYVVMPMRL
modifications: labeled with Alexa Fluor 488 C5-maleimide
notes: β processivity subunit of DNA polymerase III, E. coli; also called β clamp; beta processivity clamp; source: purified; as previously described [21]
As for B1, the binding result is “binds”.
